# Results published in paper PMC7051184, “C9orf72 arginine-rich dipeptide repeat proteins disrupt karyopherin-mediated nuclear import” (eLife, 2020).
# By UniProt entry, the sequences of proteins in these tests, tags left out.
# UniProt Q14974, whole entry: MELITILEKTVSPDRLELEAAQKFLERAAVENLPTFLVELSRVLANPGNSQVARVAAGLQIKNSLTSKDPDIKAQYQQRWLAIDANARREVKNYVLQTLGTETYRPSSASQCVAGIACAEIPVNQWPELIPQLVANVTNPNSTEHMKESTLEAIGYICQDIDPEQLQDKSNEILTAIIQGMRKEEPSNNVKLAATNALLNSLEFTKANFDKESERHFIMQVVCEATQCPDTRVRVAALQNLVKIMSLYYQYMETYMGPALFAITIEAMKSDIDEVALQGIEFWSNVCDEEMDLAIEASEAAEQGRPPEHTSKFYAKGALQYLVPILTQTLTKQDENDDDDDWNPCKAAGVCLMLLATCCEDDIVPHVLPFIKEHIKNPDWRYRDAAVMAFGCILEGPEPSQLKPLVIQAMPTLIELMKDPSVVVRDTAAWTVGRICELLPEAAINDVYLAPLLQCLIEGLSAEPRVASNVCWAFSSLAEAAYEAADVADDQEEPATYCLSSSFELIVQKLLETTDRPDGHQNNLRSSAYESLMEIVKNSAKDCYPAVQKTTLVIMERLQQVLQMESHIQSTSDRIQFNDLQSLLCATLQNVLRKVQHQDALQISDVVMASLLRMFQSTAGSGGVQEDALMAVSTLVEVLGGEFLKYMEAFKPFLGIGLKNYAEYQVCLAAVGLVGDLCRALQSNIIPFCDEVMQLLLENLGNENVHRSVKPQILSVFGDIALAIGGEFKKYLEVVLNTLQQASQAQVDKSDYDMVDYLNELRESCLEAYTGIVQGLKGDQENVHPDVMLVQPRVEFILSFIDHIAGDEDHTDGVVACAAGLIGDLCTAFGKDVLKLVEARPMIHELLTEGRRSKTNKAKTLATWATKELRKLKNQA
# Target: T1, importin β (KPNB1) (Homo sapiens, UniProt Q14974)
# T1 construct: pET30a 6His-S-Importin β(1-876); 6His (N); S-tag (N); made in house; host or cells: E. coli BL21(DE3)
# Test: Rango FRET detection of importin β-Rango dissociation
# Format: binding
# Settings: DPR 10-mers added to importin β-bound Rango
# Method: Full-length human importin β was expressed from pET30a-WT importin β (pKW485; [Chi et al., 1997]) at the Protein Expression Laboratory (PEL, National Cancer Institute, Frederick, MD). The transformed BL21DE3 cells were grown at 37°C in an 80L Bioflow 500 bioreactor (New Brunswick Scientific, Edison, NJ) until OD600nm = 0.6, cooled to 22°C and the expression was induced with 0.3 mM IPTG. After 12 hr induction, cells were harvested with the CARR continuous flow centrifuge and lysed in PBS with 10 mM imidazole and 5 mM TCEP with a 110EH Microfluidizer (Microfluidics, Westwood, MA) using 2 passes at 10,000 PSI under chilled conditions. […] Measurement of Rango fluorescence emission in a spectrometer (see below) was used to verify the FRET-off state of the Rango/importin β mixture before freezing. […]
# FRET assays for DPR-induced dissociation of the importin β-Rango complex were performed using a mix of 5 µM Rango-2/α1 (pK188) and 12.5 µM importin β (pKW485) prepared as described above. […] Peak emissions were recorded at 480 nm (donor) and 535 nm (acceptor) in all samples, and background emission subtracted at the same wavelengths in the blank. The FRET signal was calculated as the ratio of background-subtracted acceptor/donor emissions. The signal detected in the untreated sample (20 nM Rango and 50 nM importin β-only, the lowest FRET), was then subtracted from the resulting values. […]
structure (smiles),measurement,value
N=C(N)NCCC[C@H](NC(=O)CNC(=O)[C@H](CCCNC(=N)N)NC(=O)CNC(=O)[C@H](CCCNC(=N)N)NC(=O)CNC(=O)[C@H](CCCNC(=N)N)NC(=O)CNC(=O)[C@H](CCCNC(=N)N)NC(=O)CNC(=O)[C@H](CCCNC(=N)N)NC(=O)CNC(=O)[C@H](CCCNC(=N)N)NC(=O)CNC(=O)[C@H](CCCNC(=N)N)NC(=O)CNC(=O)[C@H](CCCNC(=N)N)NC(=O)CNC(=O)[C@H](CCCNC(=N)N)NC(=O)CN)C(=O)O [GR10],Effect on Rango FRET,dose-dependent increase in FRET
